Reference: patent US20240352445A1 (published 2024)
Numbering of substitutions follows the chain as printed.

What was measured:
[1] = target: T1, SARS-CoV-2 spike protein trimer, Omicron (B.1.1.529) variant (SARS-CoV-2, UniProt P0DTC2 16-1213); experiment: IC50 (assay not stated)
[2] = target: T2, SARS-CoV-2 spike protein trimer, Omicron (BA.2) variant (SARS-CoV-2, UniProt P0DTC2 16-1213); experiment: IC50 (assay not stated)
[3] = target: T1, SARS-CoV-2 spike protein trimer, …; experiment: sVNT ACE2 blocking ELISA
[4] = target: T2, SARS-CoV-2 spike protein trimer, …; experiment: sVNT ACE2 blocking ELISA
[5] = target: SARS-CoV-2 spike protein trimer, Delta (B.1.617.2) variant (SARS-CoV-2, UniProt P0DTC2 16-1213); experiment: sVNT ACE2 blocking ELISA

B1: G10xA3 (antibody, V domains shown)
VH: EVQLVESGGGLVQPGGSLRLSCEASGFTFPNQAMTWVRQAPGKGLEWIGVIASNADTYYASWAKGRFTISRDNSKNTLYLQMNSLRAEDTAVYYCARHPGSAGYGYGHYYAMDPWGQGTLVTVSS
VL: DIQMTQSPSSLSASVGDRVTITCQASERVFYGIDWYQQKPGKAPKLLIYGASALWHGVPSRFSGSGSGTDYTLTISSLQPEDFATYYCQQGYMVPIGFGGGTKVEIK
Question: Which results are given for B1?
Answer: IC50 [1]: 3.84 ng/mL; IC50 [2]: 20.4 ng/mL; IC50 [3]: 3.17 ng/mL; IC50 [4]: 13 ng/mL; IC50 [5]: 1.79 ng/mL

B2: G10xE6 (antibody, V domains shown)
VH: B1 VH with E23K, T28S, F29L, P30S, N31P, Q32Y, M34V, G107A, H108V
VL: B1 VL
Question: How did the IC50 [3] turn out when B2 was run?
Answer: 2.07 ng/mL

Question: And the IC50 [4]?
Answer: 8.34 ng/mL

Question: What about the IC50 [5] of the same binder?
Answer: 2 ng/mL

B3: Gx10E2 (antibody, V domains shown)
VH: B1 VH with E23T, F27Y, F29V, P30Q, N31R, Q32H, M34I, H108M, A111S
VL: B1 VL
Question: Which results are given for B3?
Answer: IC50 [3]: 3.47 ng/mL; IC50 [4]: 14.1 ng/mL; IC50 [5]: 2.31 ng/mL

B4: G10x2 (antibody, V domains shown)
VH: B1 VH with G16E, E23K, L85P, G107A, H108L
VL: B1 VL
Question: For B4, which IC50 [3] is on record?
Answer: 3.08 ng/mL

Question: And the IC50 [4]?
Answer: 10.8 ng/mL

Question: And the IC50 [5]?
Answer: 2.81 ng/mL

B5: G10xE5 (antibody, V domains shown)
VH: B1 VH with E23A, F27Y, T28S, F29I, P30T, N31H, M34V, G107A, H108L
VL: B1 VL
Question: What does the source list for B5?
Answer: IC50 [3]: 2.06 ng/mL; IC50 [4]: 9.24 ng/mL; IC50 [5]: 2.56 ng/mL
